Results of unrelated studies side by side (data: NIAID ChemDB).

All rows: host cell toxicity; cells: MT-4; endpoint: CC50

CCn: concentration that lowers growth or viability of the cells by n%. Conditions beyond the fields shown may differ between rows. Blank or dashed fields: not listed here.

smiles,method,value
COc1cc2nc(SCC(=O)Nc3ccc(Cl)cc3)nc(Nc3c(Cl)cc(/C=C/C#N)cc3Cl)c2cc1OC,MTT,>29.5 µM
Cc1c(Cc2c(F)cccc2F)nc(NN2CCC(C)CC2)[nH]c1=O,MTT,>75 µM
Clc1ccc(-c2nn3c(-c4ccc(Cl)c(Cl)c4)nnc3s2)cc1Cl,,67.8 µg/mL
Cc1cc(/C=C/C#N)cc(C)c1Oc1ccnc(S(=O)(=O)CC(=O)Nc2ccc(Cl)cc2)n1,MTT,4.29 µM
Cc1cn([C@H]2C[C@H](N=[N+]=[N-])[C@@H](CO)O2)c(=O)[nH]c1=O,MTT,>25 µg/mL
Cc1cc(-c2ccc(C#N)cc2)cc(C)c1Oc1ccnc(S(=O)(=O)CC(=O)NC(C)c2ccc(F)cc2)n1,MTT,4.55 µM
Cc1ccc(C(C)C)c2oc(=O)c(C(=O)/C=C/c3cccc([N+](=O)[O-])c3)c(O)c12,,13.1 µg/mL
Nc1nc2c(ncn2[C@H]2C[C@H](F)[C@@H](CO)O2)c(=O)[nH]1,,231 µM
N#C/C(=C\c1ccco1)n1nnc2ccccc21,,89 µM
Clc1ccc(-c2nn3c(-c4cccc(Br)c4)nnc3s2)cc1Cl,,4.12 µg/mL
Cc1cn([C@@H]2CO[C@@H](CO)S2)c(=O)[nH]c1=O,,>100 µg/mL
CCc1c(Cc2cc(C)cc(C)c2)n(Cc2ccc(C#CCF)cc2)c(=O)[nH]c1=O,MTT,2 µM
N#C/C(=C\c1cccc(F)c1F)n1nnc2ccccc21,,3.3 µM
COc1cc([C@H]2c3c(cc(OC)c(OC)c3OC)C[C@H]3COC(=O)[C@@H]32)cc(C)c1OC,,183 µM
Clc1ccc(-c2nnc3sc(-c4ccco4)nn23)cc1Cl,,27.2 µg/mL
Cc1cc2oc(=O)c(C(=O)/C=C/c3ccccc3)c(O)c2cc1Cl,,3.64 µg/mL
Cc1cn([C@H]2C[C@H](N=[N+]=[N-])[C@@H](CO)O2)c(=O)[nH]c1=O,MTT,>100 µM
COc1cc2nc(S(=O)CC(=O)Nc3cccc(F)c3)nc(Nc3c(Cl)cc(/C=C/C#N)cc3Cl)c2cc1OC,MTT,9.55 µM
COc1ccc(/C=C/C(=O)c2c(O)c3c(C)ccc(C(C)C)c3oc2=O)cc1OC,,62 µg/mL
N#C/C(=C\c1ccc(Cl)c(Cl)c1)n1nnc2ccccc21,,5.8 µM
Cc1cc(-c2ccc(C#N)cc2)cc(C)c1Oc1ccnc(S(=O)(=O)C(C)C(=O)Nc2ccc(C#N)cc2)n1,MTT,15.38 µM
CCOCn1c(Cc2ccccc2)c(C(C)C)c(=O)[nH]c1=O,,>100 µM
CCCNc1c(N=Nc2ccc(Cl)cc2)c(N)nc(=O)n1C,MTT,100 µM
N#C/C(=C/c1ccccc1Br)n1nnc2ccccc21,,2 µM
Nc1nc2c(ncn2[C@H]2CC[C@](CCP(=O)(O)O)(C(F)(F)F)C2)c(=O)[nH]1,MTT,>100 µM
Cc1cn([C@H]2CO[C@@H](CO)S2)c(=O)[nH]c1=O,,>100 µg/mL
CC(C)=CCN1C(=O)c2cccn2S(=O)(=O)c2ccc(Cl)cc21,,>300 µM
N#C/C(=C\c1cccc(C#N)c1)n1nnc2ccccc21,,1.5 µM
COC(=O)N[C@H](C(=O)NN(CC[C@]1(Cc2ccccc2)C(=O)N(C2c3ccccc3C[C@H]2O)C[C@@H]1O)Cc1ccc(Br)cc1)C(C)(C)C,XTT,31 µM
O=C1CC(c2ccc([N+](=O)[O-])cc2)n2nc(-c3cccnc3)nc2N1,visual reading,>100 µg/mL
N#C/C(=C\C(c1ccccc1)c1ccccc1)n1nnc2ccccc21,,>100 µM
COc1ccc(N2CCN(CN3C(=O)C(=Nc4ccc(S(=O)(=O)Nc5nc(C)cc(C)n5)cc4)c4cc(F)ccc43)CC2)cc1,MTT,43.32 µM
COc1ccc(/C=C/C(=O)c2c(O)c3cc(Cl)c(C)cc3oc2=O)cc1OC,,59.1 µg/mL
O=C1CC(c2ccc([N+](=O)[O-])cc2)n2nc(C3CCCCC3)nc2N1,visual reading,≥100 µg/mL
Cc1ccc(C(C)C)c2oc(=O)c(C(=O)/C=C/c3ccccc3[N+](=O)[O-])c(O)c12,,3.06 µg/mL
C=CCOCn1c(C(F)c2cccc(C#N)c2)c(CC)c(=O)[nH]c1=O,,>100 µM
COc1ccc([C@@H]2C[C@@H]2CSc2nc([C@@H](C)c3c(F)cccc3F)c(C)c(=O)[nH]2)cc1,MTT,>56.25 µM
COc1cc([C@H]2c3c(cc4c(c3OC)OCO4)C[C@H]3CSC[C@@H]32)cc(C)c1OC,,163 µM
CC(C)OC(=O)OCOP(=O)(CO[C@H](C)Cn1cnc2c(N)ncnc21)OCOC(=O)OC(C)C,MTT,6.73 µg/mL
COc1cc2nc(S(=O)CC(=O)Nc3cc([N+](=O)[O-])ccc3F)nc(Nc3c(Cl)cc(/C=C/C#N)cc3Cl)c2cc1OC,MTT,>194 µM
CCN(CC)c1c(N=Nc2ccc(-c3ccc(OC)c(OC)c3)cc2)c(N)nc(=O)n1C,MTT,25.23 µM
CCc1c(Cc2cc(C)cc(C)c2)n(COCCF)c(=O)[nH]c1=O,MTT,>100 µM
COC(=O)N[C@H](C(=O)NN(CC[C@]1(Cc2ccccc2)C(=O)N(C2c3ccccc3C[C@H]2O)C[C@H]1O)Cc1ccc(Br)cc1)C(C)(C)C,XTT,31 µM
COc1c(N2CCN(CN3C(=O)C(=Nc4ccc(S(=O)(=O)Nc5nc(C)cc(C)n5)cc4)c4ccccc43)C(C)C2)c(F)cc2c(=O)c(C(=O)O)cn(C3CC3)c12,MTT,151.6 µM
CCN1C(=O)c2cccn2S(=O)(=O)c2cc(Cl)ccc21,,283 µM
O=C1CC(c2ccccc2)n2nc(-c3cccnc3)nc2N1,visual reading,>100 µg/mL
Cc1cc(-c2ccc(C#N)cc2)cc(C)c1Oc1ccnc(S(=O)(=O)CC(=O)NCc2ccc(C#N)cc2)n1,MTT,51.23 µM
O=C1Nc2cc(Cl)ccc2S(=O)(=O)n2cccc21,,>300 µM
O=C1CC(c2ccccc2)n2nc(-c3ccc4ccccc4c3)nc2N1,visual reading,>100 µg/mL
CCc1c(Cc2cc(C)cc(C)c2)n(Cc2ccc(I)cc2)c(=O)[nH]c1=O,MTT,43 µM
Cc1cc(-c2ccc(C#N)cc2)cc(C)c1Oc1ccnc(S(=O)(=O)C(C)C(=O)NCc2ccc(F)cc2)n1,MTT,20.19 µM
Oc1ccc(-c2nnc3sc(-c4cnccn4)nn23)c(Cl)c1Cl,MTT,2.11 µg/mL
COc1ccc(C2CC(=O)Nc3nc(-c4ccncc4)nn32)cc1,visual reading,>100 µg/mL
Nc1ccc(-c2nnc3sc(-c4cc5ccccc5oc4=O)nn23)cc1,,108.3 µg/mL
Nc1ncnc2c1ncn2[C@H]1C=C[C@@H](CO)[C@@H]1CO,,40 µg/mL
C=C(C)COCn1c(Cc2ccccc2)c(CF)c(=O)[nH]c1=O,MTT,>100 µM
COC(=O)N[C@H](C(=O)NN(CC[C@@]1(Cc2ccccc2)C(=O)N(C2c3ccccc3C[C@H]2O)C[C@H]1O)Cc1ccc(-c2ccccn2)cc1)C(C)(C)C,XTT,31 µM
COc1ccc([C@H]2c3c(cc4c(c3OC)OCO4)C[C@@H](C)[C@@H]2C)cc1O,,127 µM
Nc1ncnc2c1ncn2[C@@H]1CO[C@@H](CO)S1,,>100 µg/mL
Clc1ccc(-c2nnc3sc(-c4cccs4)nn23)cc1Cl,,92.7 µg/mL
COc1cc(/C=C/C(=O)c2c(O)c3c(C)ccc(C(C)C)c3oc2=O)ccc1O,,14.2 µg/mL
Cn1c(-c2ccc(F)cc2)cc(N)nc1=O,MTT,19.35 µM
Nc1nc(NC2CC2)c2ncn([C@H]3C=C[C@@H](CO)C3)c2n1,MTT,0.26 µg/mL
CCc1c(C(=O)c2cccc(C#N)c2)n(Cc2cccc(C#N)c2)c(=O)[nH]c1=O,,>100 µM
NC1=Nn2c(nnc2-c2ccc(Cl)c(Cl)c2)SC1,,2.7 µg/mL
COc1ccc(C2CC2CSc2nc(C(C)c3c(F)cccc3F)c(C)c(=O)[nH]2)cc1,MTT,37.3 µM
CCn1cc(C(=O)O)c(=O)c2cc(F)c(N3CCN(CN4C(=O)C(=Nc5ccc(S(=O)(=O)Nc6nc(C)cc(C)n6)cc5)c5cc(F)ccc54)C(C)C3)c(F)c21,MTT,126 µM
Cc1cc(/C=C/C#N)cc(C)c1Oc1ccnc(S(=O)(=O)CC(=O)NCCc2ccc(Cl)cc2)n1,MTT,24.46 µM
CCN1C(=O)c2cccn2S(=O)(=O)c2ccc(Cl)cc21,,>300 µM
COC(=O)N[C@H](C(=O)NN(CCC[C@@]1(Cc2ccccc2)C(=O)N(C2c3ccccc3C[C@H]2O)C[C@H]1O)Cc1ccc(-c2ccccn2)cc1)C(C)(C)C,XTT,31 µM
COc1c(N2CCN(CN3C(=O)C(=Nc4ccc(S(=O)(=O)Nc5nc(C)cc(C)n5)cc4)c4cc(F)ccc43)C(C)C2)c(F)cc2c(=O)c(C(=O)O)cn(C3CC3)c12,MTT,166.8 µM
Cc1cc2oc(=O)c(C(=O)/C=C/c3cccc(Oc4ccccc4)c3)c(O)c2cc1Cl,,60.4 µg/mL
Cc1cc(-c2ccc(C#N)cc2)cc(C)c1Oc1ccnc(S(=O)(=O)CC(=O)Nc2ccc(Br)cc2)n1,MTT,26.91 µM
Cn1c(N2CCOCC2)c(N=Nc2ccc(Cl)cc2)c(N)nc1=O,MTT,12.22 µM
CCOP(=O)(CC[C@]1(C(F)(F)F)CC[C@H](n2cnc3c(Cl)nc(N)nc32)C1)OCC,MTT,>100 µM
Cc1cc(-c2ccc(C#N)cc2)cc(C)c1Oc1ccnc(S(=O)(=O)CC(=O)NCCc2ccc(Br)cc2)n1,MTT,8.44 µM

Again, the opening 10 rows:

smiles,method,value
COc1cc2nc(SCC(=O)Nc3ccc(Cl)cc3)nc(Nc3c(Cl)cc(/C=C/C#N)cc3Cl)c2cc1OC,MTT,>29.5 µM
Cc1c(Cc2c(F)cccc2F)nc(NN2CCC(C)CC2)[nH]c1=O,MTT,>75 µM
Clc1ccc(-c2nn3c(-c4ccc(Cl)c(Cl)c4)nnc3s2)cc1Cl,,67.8 µg/mL
Cc1cc(/C=C/C#N)cc(C)c1Oc1ccnc(S(=O)(=O)CC(=O)Nc2ccc(Cl)cc2)n1,MTT,4.29 µM
Cc1cn([C@H]2C[C@H](N=[N+]=[N-])[C@@H](CO)O2)c(=O)[nH]c1=O,MTT,>25 µg/mL
Cc1cc(-c2ccc(C#N)cc2)cc(C)c1Oc1ccnc(S(=O)(=O)CC(=O)NC(C)c2ccc(F)cc2)n1,MTT,4.55 µM
Cc1ccc(C(C)C)c2oc(=O)c(C(=O)/C=C/c3cccc([N+](=O)[O-])c3)c(O)c12,,13.1 µg/mL
Nc1nc2c(ncn2[C@H]2C[C@H](F)[C@@H](CO)O2)c(=O)[nH]1,,231 µM
N#C/C(=C\c1ccco1)n1nnc2ccccc21,,89 µM
Clc1ccc(-c2nn3c(-c4cccc(Br)c4)nnc3s2)cc1Cl,,4.12 µg/mL